The test system of assay [1] is Human alphaherpesvirus 1. In words: Antiviral activity was measured by plaque assay against HSV-1 virus by ELISA method. For orientation: An ELISA detects its analyte on a solid surface through an enzyme-linked reagent.
The subject of assay [2] is Human betaherpesvirus 5. The experiment in a line: Concentration required for 50% inhibition of HCMV replication was measured using a Plaque reduction assay. (In general: Plaque reduction counts the foci of infection that form in a cell layer.)

Bounds are passed on as bounds.

A word on the IC50: it is the midpoint of a concentration-inhibition curve.

Regarding `O=[N+]([O-])c1cc2nc(Cl)[nH]c2cc1[N+](=O)[O-]`, the IC50 in assay [1] was above 100 µM; in assay [2], 38 µM.
